Consider 1 molecule from ChEMBL document CHEMBL4725430, “Discovery of Zika Virus NS2B/NS3 Inhibitors That Prevent Mice from Life-Threatening Infection and Brain Damage” (ACS Med Chem Lett, 2020).

This test has as its system Zika virus. Nature of the test: Antiviral activity against Zika virus 976 Uganda infected in human HepG2 cells assessed as protection against viral infection by measuring cell survival at 100 uM measured after 4 days by CellTiter-Glo luminescent cell viability assay relative to control. The settings on record: time 4 day, strain 976 Uganda. On the technique in general: ATP-based viability assays read luminescence as a measure of living cells.

For `NC(=O)c1ncn([C@@H]2O[C@H](CO)[C@@H](O)[C@H]2O)n1` [RIBAVIRIN], the Survival was found to be 82%.
